Patent publication US7285567B2, “Halogenated benzamide derivatives” (Romark Laboratories, L.C., priority 2005, dated 2007)

System: Paramyxovirus: Sendai virus
Type: cell-based
Conditions: Sendai virus in cell culture (Table 2); SI = CC50/EC50, CC50 by MTT

Row | Structure (SMILES) | SI
1 | CC(=O)Oc1ccccc1C(=O)Nc1ncc(Br)s1 [RM-4820, 2-(acetolyloxy)-N-(5-bromo-2-thiazolyl)benzamide] | 35
2 | CC(=O)Oc1ccc(C)cc1C(=O)Nc1ncc(Br)s1 [RM-4821] | >50
3 | CC(=O)Oc1cc(C)ccc1C(=O)Nc1ncc(Br)s1 [RM-4822] | 7
